Anti-infective test results gathered from many reports (values: NIAID ChemDB through PubChem).

Common to all: tests on isolated targets; agent: HIV-1; target: Reverse transcriptase; endpoint: IC50

a–b is a range or a potency band. Blank or dashed fields: not listed here. ICn is the concentration giving n% inhibition. Conditions beyond the fields shown may differ between rows.

{"compound": "Cc1cc(C)c(-n2nnnc2SCC(=O)Nc2cccc(F)c2C#N)c(C)c1", "read by": "nucleotide incorporation / radiometric", "value": "<2 µM"}
{"compound": "CCN1c2ncc(CCOc3ccc(CC(=O)O)c4ccccc34)cc2C(=O)N(C)c2ccc(F)nc21", "changes": "RT-Y188L", "read by": "nucleotide incorporation / radiometric", "value": ">1 µM"}
{"compound": "Cc1cc(C)c(-n2nnnc2SCC(=O)Nc2cccc3ncccc23)c(C)c1", "read by": "nucleotide incorporation / radiometric", "value": "<2 µM"}
{"compound": "CCN1c2ncc(CCOc3ccc(CCC(=O)O)c4ccccc34)cc2C(=O)Nc2c(C)ccnc21", "strain or isolate": "WT", "read by": "nucleotide incorporation / radiometric", "value": "<0.1 µM"}
{"compound": "CC(C)=CCOc1cc(NC(=S)c2ccoc2C)ccc1Cl", "changes": "RT-M184V", "value": "4.2 µM"}
{"compound": "CCN1c2ncc(C(C)O)cc2C(=O)N(C)c2ccc(Cl)nc21", "changes": "RT-Y181C", "read by": "nucleotide incorporation / radiometric", "value": "<1 µM"}
{"compound": "CCOc1ccccc1N1CCN(C(=O)c2cc3ccccc3[nH]2)CC1", "strain or isolate": "IIIB", "read by": "RT activity", "value": "2 µM"}
{"compound": "CCOc1cccc(C2(CC)Oc3ccccc3-n3cccc3C2=O)c1", "changes": "RT-K103N", "read by": "nucleotide incorporation / radiometric", "value": "3.5 µM"}
{"compound": "COc1ccccc1N1CCN(C(=O)c2cc3cc4c(cc3[nH]2)OCO4)CC1", "strain or isolate": "IIIB", "read by": "RT activity", "value": "2.5 µM"}
{"compound": "COc1ccc2c(c1)N(C(=O)OC(C)C)[C@@H](CSC)C(=S)N2", "changes": "RT-G190E T215Y", "read by": "scintillation proximity / radiometric", "value": ">29 µM"}
{"compound": "CCN1c2ncc(CCOc3ccc(C(=O)O)c4ccccc34)cc2C(=O)N(C)c2ccc(Cl)nc21", "strain or isolate": "WT", "read by": "nucleotide incorporation / radiometric", "value": "<0.1 µM"}
{"compound": "CCC1(c2cccc(I)c2)Oc2ccccc2-n2cccc2C1=O", "changes": "RT-V106A", "read by": "nucleotide incorporation / radiometric", "value": "0.13 µM"}
{"compound": "CC(C)c1ccccc1-n1nnnc1SCC(=O)Nc1ccccc1[N+](=O)[O-]", "read by": "nucleotide incorporation / radiometric", "value": "<2 µM"}
{"compound": "CCN1c2ncc(CCOc3ccc4cc(C(=O)O)ccc4c3)cc2C(=O)N(C)c2cccnc21", "changes": "RT-Y188L", "read by": "nucleotide incorporation / radiometric", "value": ">1 µM"}
{"compound": "Cc1cc(C)c(-n2nnnc2SCC(=O)Nc2ccc(C)cc2Cl)c(C)c1", "read by": "nucleotide incorporation / radiometric", "value": "<2 µM"}
{"compound": "CCN1c2ncc(CSc3ncnc4[nH]ncc34)cc2C(=O)N(C)c2ccc(Cl)nc21", "strain or isolate": "WT", "read by": "nucleotide incorporation / radiometric", "value": "<1 µM"}
{"compound": "CCC1(c2ccc(I)cc2)Oc2ccccc2-n2cccc2C1=O", "changes": "RT-K103N", "read by": "nucleotide incorporation / radiometric", "value": ">100 µM"}
{"compound": "CCN1c2ncc(COc3ccncc3)cc2C(=O)N(C)c2ccc(Cl)nc21", "changes": "RT-Y181C", "read by": "nucleotide incorporation / radiometric", "value": "<1 µM"}
{"compound": "Cc1cc(C)c(-n2nnnc2SCC(=O)Nc2cc(C)on2)c(C)c1", "read by": "nucleotide incorporation / radiometric", "value": "<2 µM"}
{"compound": "CCOc1ccccc1N1CCN(C(=O)c2cc3cc4c(cc3[nH]2)OCO4)CC1", "strain or isolate": "IIIB", "changes": "RT-P236L", "value": "31.1 µM"}
{"compound": "Cc1cc(C)c(-n2nnnc2SCC(=O)Nc2ccc(Cl)nc2Cl)c(C)c1", "read by": "nucleotide incorporation / radiometric", "value": "<2 µM"}
{"compound": "CCN1c2ncc(CCc3ccccc3)cc2C(=O)Nc2c(C)cc(Cl)nc21", "changes": "RT-Y181C", "read by": "nucleotide incorporation / radiometric", "value": "<1 µM"}
{"compound": "CCN1c2ncc(CCOc3ccc(CCC(=O)NN)c4ccccc34)cc2C(=O)N(C)c2cccnc21", "changes": "RT-Y188L", "read by": "nucleotide incorporation / radiometric", "value": ">1 µM"}
{"compound": "Cc1cn([C@H]2C=C[C@@H](COP(=O)(O)OP(=O)(O)OP(=O)(O)O)O2)c(=O)[nH]c1=O", "changes": "RT-T139V", "read by": "nucleotide incorporation / radiometric", "value": "0.14 µM"}
{"compound": "CCN1c2ncc(CCc3cccc(F)c3)cc2C(=O)N(C)c2cccnc21", "strain or isolate": "WT", "read by": "nucleotide incorporation / radiometric", "value": "<1 µM"}
{"compound": "CCN1c2ncc(CCOc3cccc4c3CCCN4CC(=O)O)cc2C(=O)N(C)c2cccnc21", "changes": "RT-Y188L", "read by": "nucleotide incorporation / radiometric", "value": ">1 µM"}
{"compound": "CC(C)Nc1cccnc1N1CCN(C(=O)c2cc3cc4c(cc3[nH]2)OCO4)CC1", "strain or isolate": "IIIB", "changes": "RT-Y181C", "value": "10.9 µM"}
{"compound": "Cc1cc(C)c(-n2nnnc2SCC(=O)Nc2cccc([N+](=O)[O-])c2)c(C)c1", "read by": "nucleotide incorporation / radiometric", "value": "<2 µM"}
{"compound": "CCN1c2ncc(CCc3cc[nH]c(=O)c3)cc2C(=O)N(C)c2ccc(Cl)nc21", "changes": "RT-Y181C", "read by": "nucleotide incorporation / radiometric", "value": "<1 µM"}
{"compound": "C=C(CC(=O)O)c1ccc(OCCc2cnc3c(c2)C(=O)N(C)c2cccnc2N3CC)c2ccccc12", "strain or isolate": "WT", "read by": "nucleotide incorporation / radiometric", "value": "<0.1 µM"}
{"compound": "Cc1cc(C)c(-n2nnnc2SCC(=O)Nc2ccc([N+](=O)[O-])cc2Cl)c(C)c1", "read by": "nucleotide incorporation / radiometric", "value": "<2 µM"}
{"compound": "CCN1c2ncc(CCOc3ccc(/C=C(\\C)C(=O)O)c4ccccc34)cc2C(=O)Nc2c(C)cc(F)nc21", "changes": "RT-V106A", "read by": "nucleotide incorporation / radiometric", "value": "0.1–1 µM"}
{"compound": "CCC1(c2ccc(COc3cccnc3)cc2)Oc2ccccc2-n2cccc2C1=O", "changes": "RT-L100I", "read by": "nucleotide incorporation / radiometric", "value": "0.3 µM"}
{"compound": "CCN1c2ncc(COc3cccc(OC)c3)cc2C(=O)N(C)c2ccc(Cl)nc21", "strain or isolate": "WT", "read by": "nucleotide incorporation / radiometric", "value": "<1 µM"}
{"compound": "Cc1cc(S(N)(=O)=O)ccc1NC(=O)COc1ccc(Cl)cc1C(=O)c1cc(Cl)cc(C#N)c1", "changes": "RT-P236L", "read by": "fluorescence", "value": "0.0068 µM"}

For reference, 3 entries again:

compound	strain or isolate	changes	read by	value
CCC1(c2ccc(I)cc2)Oc2ccccc2-n2cccc2C1=O	-	RT-K103N	nucleotide incorporation / radiometric	>100 µM
Cc1cc(C)c(-n2nnnc2SCC(=O)Nc2ccc(Cl)nc2Cl)c(C)c1	-	-	nucleotide incorporation / radiometric	<2 µM
CCOc1ccccc1N1CCN(C(=O)c2cc3ccccc3[nH]2)CC1	IIIB	-	RT activity	2 µM